Reference: the supplement of paper PMC9931576
Human monoclonal antibodies against the spike receptor-binding domain (heavy:light variable regions). IC50 against pseudoviruses bearing the spike of naturally observed variants; lower = stronger; >10 µg/ml means not reached at the top dose. No active / inactive call. The stated detection limit is 0.0005 µg/ml; values near or below 0.001 µg/ml lie at the floor of the assay.

B1: BD57-065 (protein)
chain 1: EVQLVESGGGLVQPGRSLRLSCAASGFTFDEYTIHWVRQAPGKGLEWVSGTSWNSGTIGYADSVMGRFTISRDNAKKSVYLQMNSLRPEDTALYYCTKAFWGGDCGGDCYGVDYWGQGTLVTVSS
chain 2: QSVLTQPPSVSGAPGQRVTISCTGSSSNIGADYAVHWYQQLPGTAPKLVIYDNTNRPSGVPDRFSGSKSGTSASLAITGLQAEDEADYYCQSYDSSLSGTVVFGGGTKLTVL
B2: BD57-071 (protein)
chain 1: QVQLVQSGAEVKKPGASVRVSCKASGYTFTSYYMHWVRQAPGQGLEWMGTIDPTGGSTSYAQKFQGRVTMTRDTSTSPVYMELSSLRSDDTAVYYCATSTVTTLFVDYWGQGTLVTVSS
chain 2: NFMLTQPHSVSESPGKTVTISCTRSSGSIANNYVQWYQQRPGSAPTTVIYEDNQRPSGVPDRFSGSIDSSSNSASLTISGLKTEDEADYYCQSYDTNINWVFGGGTKLTVL
B3: BD57-064 (protein)
chain 1: EVQLVESGGGLVQPGGSLRLSCAASGFTFSSYDMHWVRQTTGKGLEWVSAIGTAGDTYYPDSVKGRFTISRENAKNSLYLQLNRLTAGDTAVYYCARGGMYGSGTYDLVTWYFDLWGRGTPVTVSS
chain 2: DIQMTQSPSSLSASVGDRVTITCRASQSISRYLHWYQQKPGKAPKLLIYGASNLQSGVPSRFSGSGSGTDFTLTISGLQPEDFGTYYCQQSYTNPPITFGQGTRLEIK
B4: BD57-072 (protein)
chain 1: EVQLVESGGGLVQPGRSLRLSCAASGFTFEDYAMHWVRQAPGKGLEWVSVISWNSGGIAYADSVKGRFTISRDNAKNSLYLQMNSLRPEDTALYYCAKGWFGEWLGGIDPWGQGTLVTVSS
chain 2: QSVLTQPPSVSGAPGQRVTISCTGSSSNIGAGFDVYWYQQLPGTAPKLLIYGNSNRPSGVPDRFSGSKSGTSASLAITGLQVEDEAYYYCQSYDISLSGSGVFGGGTKLTVL
B5: BD57-068 (protein)
chain 1: EVQLVESGGGLVQSGRSLRLSCAASGFTFEDYAMHWVRQAPGKGLEWVSGISWNGGIIGYADSVKGRFIISRDNAKNSLYVQMYSLRVEDTALYYCAKAVDYGDYDGGFQHWGQGTLVTVSS
chain 2: QSALTQPASVSGSPGQSITISCTGSSSDVGGYNYVSWYQQHPGKAPKLTIYDVGKRPSGVSNRFSGSKSGNTASLTISGLQAEDEADYYCCSYTSSSSVVFGGGTKLTVL
B6: BD57-070 (protein)
chain 1: QVQLQESGPGLVKPSQTLSLTCTVSGGSLSSGFYYWSWIRQPAGKGLEWIGRIYPTGSTNYNPSLKSRVTISIDMSRKHFSLKLSSVTAADTAVYYCARDRNPTILGVADDLPEVSWGQGTLVTVSS
chain 2: DIQMTQSPSSLSASVGDRVTITCQASQDIRDYLKWYQQKPGKAPNLLIYDASNLETGVPSRFSGSGSGTDFTFTISSLQPEDIATYYCQQYDDLVTFGGGTTVEIK

The binders below were run against SARS-CoV-2 Omicron BA.1 spike pseudovirus (assay: pseudovirus neutralization IC50; higher = weaker neutralization).
Experimental: (§1)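 Single-round VSV luciferase pseudovirus mixed with antibody dilutions for 1 h and put on Huh-7 cells for about a day; IC50 from the dose curve.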

How did the “pseudovirus neutralization IC50” value turn out when B1 was run?
The value was 0.0337 µg/mL.

Which “pseudovirus neutralization IC50” value does the source give for B2 here?
Its value is 0.209 µg/mL.

B3 was tested. Which “pseudovirus neutralization IC50” value did it give?
Its value is > 10 µg/mL.

For B4, which “pseudovirus neutralization IC50” value is on record?
The value was > 10 µg/mL.

How did the “pseudovirus neutralization IC50” value turn out when B5 was run?
The value was 0.145 µg/mL.

Which “pseudovirus neutralization IC50” value does the source give for B6 here?
Its value is 0.0489 µg/mL.

What follows are binders tested against SARS-CoV-2 Omicron BA.2 spike pseudovirus in the same assay as above.
Experimental: as §1

Which “pseudovirus neutralization IC50” value does the source give for B1 here?
Its value is 0.0364 µg/mL.

With B2 as the binder, how does the “pseudovirus neutralization IC50” value read?
The value was 0.333 µg/mL.

How did the “pseudovirus neutralization IC50” value turn out when B3 was run?
Its value is > 10 µg/mL.

Which “pseudovirus neutralization IC50” value does the source give for B4 here?
The value was > 10 µg/mL.

B5 was tested. Which “pseudovirus neutralization IC50” value did it give?
The value was 0.156 µg/mL.

How did the “pseudovirus neutralization IC50” value turn out when B6 was run?
The value was 0.0472 µg/mL.

These binders were tested against SARS-CoV-2 Omicron BA.2.75 spike pseudovirus in the same assay as above.
Experimental: as §1

B1 was tested. Which “pseudovirus neutralization IC50” value did it give?
Its value is 0.0337 µg/mL.

With B2 as the binder, how does the “pseudovirus neutralization IC50” value read?
The value was 0.15 µg/mL.

Which “pseudovirus neutralization IC50” value does the source give for B3 here?
The value was > 10 µg/mL.

B4 was tested. Which “pseudovirus neutralization IC50” value did it give?
The value was > 10 µg/mL.

B5 was tested. Which “pseudovirus neutralization IC50” value did it give?
Its value is 0.095 µg/mL.

For B6, which “pseudovirus neutralization IC50” value is on record?
Its value is 0.0467 µg/mL.

These binders were tested against SARS-CoV-2 Omicron BA.5 spike pseudovirus in the same assay as above.
Experimental: as §1

Which “pseudovirus neutralization IC50” value does the source give for B1 here?
The value was 0.512 µg/mL.

Which “pseudovirus neutralization IC50” value does the source give for B2 here?
The value was 0.0489 µg/mL.

Which “pseudovirus neutralization IC50” value does the source give for B3 here?
Its value is > 10 µg/mL.

Which “pseudovirus neutralization IC50” value does the source give for B4 here?
The value was > 10 µg/mL.

For B5, which “pseudovirus neutralization IC50” value is on record?
The value was 1.25 µg/mL.

For B6, which “pseudovirus neutralization IC50” value is on record?
The value was 7.19 µg/mL.

Each binder was assayed against SARS-CoV-2 Omicron BQ.1.1 spike pseudovirus in the same assay as above.
Experimental: as §1

Which “pseudovirus neutralization IC50” value does the source give for B1 here?
Its value is > 10 µg/mL.

Which “pseudovirus neutralization IC50” value does the source give for B2 here?
Its value is 4.74 µg/mL.

How did the “pseudovirus neutralization IC50” value turn out when B3 was run?
The value was > 10 µg/mL.

How did the “pseudovirus neutralization IC50” value turn out when B4 was run?
The value was > 10 µg/mL.

For B5, which “pseudovirus neutralization IC50” value is on record?
The value was > 10 µg/mL.

B6 was tested. Which “pseudovirus neutralization IC50” value did it give?
Its value is > 10 µg/mL.

Each binder was assayed against SARS-CoV-2 Omicron XBB spike pseudovirus in the same assay as above.
Experimental: as §1

B1 was tested. Which “pseudovirus neutralization IC50” value did it give?
Its value is > 10 µg/mL.

How did the “pseudovirus neutralization IC50” value turn out when B2 was run?
The value was 5.23 µg/mL.

With B3 as the binder, how does the “pseudovirus neutralization IC50” value read?
Its value is > 10 µg/mL.

With B4 as the binder, how does the “pseudovirus neutralization IC50” value read?
Its value is > 10 µg/mL.

How did the “pseudovirus neutralization IC50” value turn out when B5 was run?
The value was > 10 µg/mL.

How did the “pseudovirus neutralization IC50” value turn out when B6 was run?
The value was > 10 µg/mL.

What follows are binders tested against SARS-CoV-2 early D614G spike pseudovirus in the same assay as above.
Experimental: as §1

For B1, which “pseudovirus neutralization IC50” value is on record?
The value was 0.0404 µg/mL.

With B2 as the binder, how does the “pseudovirus neutralization IC50” value read?
The value was 0.298 µg/mL.

With B3 as the binder, how does the “pseudovirus neutralization IC50” value read?
The value was > 10 µg/mL.

For B4, which “pseudovirus neutralization IC50” value is on record?
Its value is 2.51 µg/mL.

For B5, which “pseudovirus neutralization IC50” value is on record?
The value was 0.0421 µg/mL.

Which “pseudovirus neutralization IC50” value does the source give for B6 here?
Its value is 0.067 µg/mL.
